We go through 49 compounds from PubChem BioAssay AID841 (Emory University Molecular Libraries Screening Center, 2007).

The list shows a part of the results, in another mix than the full data. Activity calls are given as the source filed them. No stated cut-off is given here; in the data, active means protection mostly above about 24% (no sharp cut-off); inactive means mostly below about 26%.

A short description of the assay: compounds protecting cells from measles virus cytopathic effect, primary screen, measles RdRp inhibitor project, single point, MLSMR library, absorbance (AID 841). The settings on record: Measles virus-infected cells, CPE protection, at 4 µM, active compounds read high.
Take `CP(=O)(Oc1ccccc1)N1CCOC1=O` (centres undefined): the protection (pct of control) was inactive: 8.11%.

With `CCN(CC)CC(O)COC(=O)C(O)(c1ccccc1)C1CCCCC1` (centres undefined), the protection (pct of control) is inactive: 12.4%.

On to `COc1ccc(OP(C)(=O)Nc2ccc(Br)cc2)cc1` (centres undefined), for which the protection (pct of control) is inactive: 6%.

In the case of `CP(=O)(Nc1ccc(Cl)cc1)Oc1ccc(F)cc1` (centres undefined), the protection (pct of control) is inactive: 10.2%.

As to `CC(C)(C)c1ccc(OP(C)(=O)O)cc1`, the protection (pct of control) was inactive: 8.59%.

As to `CP(=O)(OC12CC3CC(CC(C3)C1)C2)OC12CC3CC(CC(C3)C1)C2`, the protection (pct of control) is inactive: 5.84%.

As for `CCOC(=O)c1ccc(NP(C)(=O)Oc2ccc(Cl)cc2)cc1` (centres undefined), the protection (pct of control) is inactive: 6.95%.

As for `COc1ccc(OP(C)(=O)Nc2ccccc2Br)cc1` (centres undefined), the protection (pct of control) is inactive: 2.94%.

For `COc1ccccc1OP(C)(=O)Nc1ccc(C)c(C)c1` (centres undefined), the protection (pct of control) is inactive: 13.8%.

In the case of `Cc1nc2ccc3ccccc3c2o1.O=[N+]([O-])c1cc([N+](=O)[O-])c(O)c([N+](=O)[O-])c1`, the protection (pct of control) was inactive: 3.4%.

On to `CN(C)CCOC(=O)C(O)(c1ccccc1)C1CCCC1` (centres undefined), for which the protection (pct of control) is inactive: 28.7%.

As for `COc1ccc(OP(C)(=O)Nc2ccccn2)cc1` (centres undefined), the protection (pct of control) is inactive: 18.8%.

In the case of `CCc1ccc(OP(C)(=O)O)cc1`, the protection (pct of control) was inactive: 4.83%.

Turning to `CP(=O)(Nc1ccccn1)Oc1ccccc1` (centres undefined), the protection (pct of control) is inactive: 5.05%.

With `COc1ccccc1OP(C)(=O)Nc1ccc(C)cc1C` (centres undefined), the protection (pct of control) was inactive: 4.92%.

For `Cc1c(NP(C)(=O)Oc2ccc(C(C)C)cc2)c(=O)n(-c2ccccc2)n1C` (centres undefined), the protection (pct of control) is inactive: 6.89%.

With `CC(C)c1ccc(OP(C)(=O)Nc2ccc(SC(F)(F)F)cc2)cc1` (centres undefined), the protection (pct of control) was inactive: 4.07%.

Turning to `CP(=O)(Nc1ccccc1F)Oc1ccccc1` (centres undefined), the protection (pct of control) was inactive: 22%.

Take `O=C(OCCN1CCN(CCOCc2ccccc2)CC1)C(O)(c1ccccc1)c1ccccc1`: the protection (pct of control) is inactive: 5.26%.

Turning to `CCOC(=O)c1ccc(NP(C)(=O)Oc2ccc(F)cc2)cc1` (centres undefined), the protection (pct of control) is inactive: 3.79%.

Take `CP(=O)(Nc1ccccc1)Oc1ccc(F)cc1` (centres undefined): the protection (pct of control) was inactive: 5.93%.

On to `CCN(CC)CCCOC(=O)C(O)(c1ccccc1)C1CCCCC1` (centres undefined), for which the protection (pct of control) is inactive: 7.95%.

Regarding `CN(C)CCOC(=O)C(O)(c1ccccc1)C1CCCCC1` (centres undefined), the protection (pct of control) was inactive: 3.2%.

For the compound `COc1ccc(OP(C)(=O)Nc2cccc(Br)c2)cc1` (centres undefined), the protection (pct of control) is inactive: 42.1%.

As to `CCOP(C)(=S)SCC(=O)NC(C)(CC)C(=O)O` (centres undefined), the protection (pct of control) is inactive: 14.4%.

For the compound `Cc1ccccc1NP(C)(=O)Nc1ccccc1C`, the protection (pct of control) was inactive: 16.2%.

`CP(=O)(Nc1ccc2c(c1)OCCO2)Oc1ccccc1` (centres undefined): the protection (pct of control) was inactive: 8.52%.

With `Cc1nc2ccc3ccccc3c2s1.O=[N+]([O-])c1cc([N+](=O)[O-])c(O)c([N+](=O)[O-])c1`, the protection (pct of control) is inactive: 8.11%.

As for `CP(=O)(Nc1ccc(SC(F)(F)F)cc1)Oc1ccccc1` (centres undefined), the protection (pct of control) was inactive: 5.06%.

Consider `COc1ccccc1OP(C)(=O)Nc1c(C)cccc1C` (centres undefined), for which the protection (pct of control) was inactive: 15.5%.

Take `CN1CCCCC1COC(=O)C1(O)c2ccccc2CCc2ccccc21` (centres undefined): the protection (pct of control) is inactive: 10.8%.

For `CC1=NCCc2c1[nH]c1ccccc21.O=[N+]([O-])c1cc([N+](=O)[O-])c(O)c([N+](=O)[O-])c1`, the protection (pct of control) was inactive: 16.6%.

Regarding `Cc1cc(C)cc(OP(C)(=O)Nc2ccc(C)cc2C)c1` (centres undefined), the protection (pct of control) is inactive: 3.64%.

On to `CCOC(=O)c1ccc(NP(C)(=O)Oc2cc(C)cc(C)c2)cc1` (centres undefined), for which the protection (pct of control) was inactive: 5.9%.

As to `Cc1cc(C)cc(OP(C)(=O)Nc2ccccn2)c1` (centres undefined), the protection (pct of control) is inactive: 2.34%.

On to `Cc1ccc(C)c(NP(C)(=O)Oc2ccccc2)c1` (centres undefined), for which the protection (pct of control) was inactive: 3.5%.

As for `CC(C)(C)c1ccc(OP(C)(=O)Nc2ccc(SC(F)(F)F)cc2)cc1` (centres undefined), the protection (pct of control) was inactive: 2.64%.

Consider `COc1ccc(OP(C)(=O)Nc2cccc(F)c2)cc1` (centres undefined), for which the protection (pct of control) is inactive: 3.11%.

On to `CCOC(=O)c1ccc(NP(C)(=O)Oc2ccccc2)cc1` (centres undefined), for which the protection (pct of control) was inactive: 12.3%.

Turning to `COc1ccccc1OP(C)(=O)Nc1ccc(C)cc1` (centres undefined), the protection (pct of control) was inactive: 10.9%.

`Cc1ccc(NP(C)(=O)Oc2ccccc2)c(C)c1` (centres undefined): the protection (pct of control) is inactive: 27.6%.

As to `CP(=O)(Nc1ccccc1Br)Oc1ccccc1` (centres undefined), the protection (pct of control) is inactive: 5.37%.

`CP(=S)(Nn1cnnc1)Oc1ccccc1` (centres undefined): the protection (pct of control) was inactive: 6.41%.

For the compound `CP(=O)(NC(=O)Nc1ccccc1)Oc1ccccc1` (centres undefined), the protection (pct of control) was inactive: 11.4%.

Consider `Cc1cc(C)cc(OP(C)(=O)Nc2ccc(SC(F)(F)F)cc2)c1` (centres undefined), for which the protection (pct of control) was inactive: 8.34%.

As for `Cc1cccc(C)c1OP(C)(=O)Nc1ccc(SC(F)(F)F)cc1` (centres undefined), the protection (pct of control) is inactive: 6.53%.

With `CP(=O)(Nc1ccccn1)Oc1ccc(Cl)cc1` (centres undefined), the protection (pct of control) was inactive: 8.9%.

Regarding `CCOP(C)(=S)SCC(=O)NC(C)C(=O)O` (centres undefined), the protection (pct of control) was inactive: 29.4%.

Take `CCOC(=O)c1ccc(NP(C)(=O)Oc2ccc(OC)cc2)cc1` (centres undefined): the protection (pct of control) is inactive: 8.85%.
